# Share of PSTVd loop 15 variants by leaf site

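A pool of all variants was put on leaves of three Nicotiana benthamiana plants. Samples came from the inoculated region at 5 days, the leaf margin at 10 and upper systemic leaves at 12.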

PSTVd intermediate strain, loop 15: wild type GGAAACCGCUACUAC, pool pattern GGAAACCGNNNNNNC; upper and lower strand joined, each 5' to 3', the first 7 letters being the upper strand, closing pairs included.

Values are reads per thousand in the sample; higher means more abundant, 0 means not found.
Each site shows the three plants.
"Pool" is the share in the plasmid pool used as inoculum, on the same scale.
The inoculated region was read from the minus strand, the other sites from the plus strand.
With 43,870-66,106 reads a sample, very low values are single reads.

| sequence | pool | inoculated region | leaf margin | systemic leaves |
|---|---|---|---|---|
| GGAAACCGAAAGGGC | 0.160 | 0.131 / 0.0482 / 0.0571 | 0 / 0 / 0 | 0.0161 / 0 / 0 |
| GGAAACCGAAAUGCC | 0.176 | 0.0328 / 0.0321 / 0.133 | 0 / 0 / 0 | 0 / 0 / 0 |
| GGAAACCGAACAUUC | 0.240 | 0.0491 / 0.0643 / 0.0571 | 0 / 0 / 0.0200 | 0 / 0 / 0 |
| GGAAACCGAACGAGC | 0.320 | 0.115 / 0.0803 / 0.0571 | 0 / 0 / 0 | 0 / 0 / 0 |
| GGAAACCGAAGACAC | 0.304 | 0.147 / 0.0482 / 0.0952 | 0 / 0 / 0 | 0 / 0 / 0 |
| GGAAACCGAAUAGGC | 0.176 | 0.115 / 0.129 / 0.0762 | 0 / 0.0223 / 0.0401 | 0 / 0 / 0 |
| GGAAACCGACCCUAC | 0.224 | 0.262 / 0.337 / 0.400 | 0.113 / 0.111 / 0.160 | 0.0161 / 0 / 0 |
| GGAAACCGACCUAUC | 0.240 | 0.131 / 0.0964 / 0.152 | 0 / 0 / 0 | 0 / 0 / 0 |
| GGAAACCGAGAAGUC | 0.0960 | 0.131 / 0.0643 / 0.133 | 0 / 0.0445 / 0.0401 | 0 / 0 / 0 |
| GGAAACCGAGCACAC | 0.272 | 0.0655 / 0.145 / 0.152 | 0 / 0 / 0.0200 | 0 / 0 / 0 |
| GGAAACCGAGGUCCC | 0.160 | 0.0491 / 0.0803 / 0.0571 | 0.0162 / 0.0223 / 0.0200 | 0 / 0 / 0 |
| GGAAACCGAGGUGAC | 0.208 | 0.0819 / 0.0803 / 0.114 | 0.0162 / 0 / 0 | 0 / 0 / 0 |
| GGAAACCGAGUCUAC | 0.0960 | 0.0655 / 0.0482 / 0.114 | 0 / 0 / 0.100 | 0 / 0 / 0 |
| GGAAACCGAGUGCUC | 0.240 | 0.0819 / 0.0161 / 0.0762 | 0.0323 / 0.0223 / 0.0200 | 0 / 0 / 0 |
| GGAAACCGAUAAAGC | 0.352 | 0.0655 / 0.145 / 0.0381 | 0.0162 / 0.0223 / 0 | 0 / 0 / 0 |
| GGAAACCGAUAAUUC | 0.304 | 0.328 / 0.450 / 0.438 | 0.162 / 0.156 / 0.140 | 0.0322 / 0.0908 / 0.0912 |
| GGAAACCGAUAGGUC | 0.176 | 0.311 / 0.225 / 0.419 | 0.113 / 0.0445 / 0.120 | 0.0644 / 0.0454 / 0.160 |
| GGAAACCGAUCCUGC | 0.304 | 0.0983 / 0.0964 / 0.133 | 0 / 0 / 0 | 0 / 0 / 0 |
| GGAAACCGAUGGGAC | 0.240 | 0.0655 / 0.145 / 0.0571 | 0 / 0.0223 / 0.0200 | 0 / 0 / 0.0228 |
| GGAAACCGCAGACAC | 0.272 | 0.0819 / 0.0964 / 0.209 | 0 / 0 / 0.0401 | 0 / 0 / 0 |
| GGAAACCGCAGCCAC | 0.192 | 0.0983 / 0.0482 / 0.0952 | 0 / 0 / 0 | 0 / 0 / 0 |
| GGAAACCGCAGGACC | 0.240 | 0.0655 / 0.193 / 0.0762 | 0.0162 / 0.0223 / 0 | 0 / 0.0151 / 0 |
| GGAAACCGCAGGCUC | 0.336 | 0.0491 / 0.0964 / 0.114 | 0.0323 / 0 / 0.100 | 0 / 0 / 0 |
| GGAAACCGCAUGGUC | 0.176 | 0.0819 / 0.0482 / 0.0762 | 0.0162 / 0.0223 / 0.0401 | 0 / 0 / 0 |
| GGAAACCGCCCGCCC | 0.144 | 0.0655 / 0 / 0.0952 | 0 / 0.0223 / 0 | 0 / 0 / 0 |
| GGAAACCGCCUAUAC | 0.192 | 0.311 / 0.289 / 0.305 | 0.113 / 0.0891 / 0.140 | 0.0161 / 0.182 / 0.0912 |
| GGAAACCGCGCUUCC | 0.128 | 0.0328 / 0.0803 / 0.0571 | 0.0323 / 0 / 0.0200 | 0 / 0 / 0 |
| GGAAACCGCGGACAC | 0.352 | 0.0819 / 0.145 / 0.0190 | 0 / 0 / 0.0200 | 0.0161 / 0 / 0 |
| GGAAACCGCGGCCGC | 0.112 | 0.0819 / 0.0964 / 0.0952 | 0.0162 / 0 / 0 | 0.0161 / 0 / 0 |
| GGAAACCGCGGGCGC | 0.320 | 0.0819 / 0.0482 / 0.0571 | 0.0162 / 0 / 0 | 0 / 0 / 0 |
| GGAAACCGCUGAUAC | 0.0960 | 0.311 / 0.353 / 0.419 | 0.113 / 0.0445 / 0.180 | 0.0322 / 0.0756 / 0.0912 |
| GGAAACCGCUGCAUC | 0.192 | 0.0491 / 0.0643 / 0.0952 | 0 / 0 / 0.0601 | 0 / 0 / 0 |
| GGAAACCGGACAUCC | 0.208 | 0.0328 / 0.0643 / 0.114 | 0.0485 / 0 / 0.0200 | 0.0161 / 0 / 0 |
| GGAAACCGGAGAUCC | 0.144 | 0.180 / 0.161 / 0.171 | 0.0485 / 0 / 0.0200 | 0 / 0 / 0 |
| GGAAACCGGAUGUGC | 0.256 | 0.131 / 0.0803 / 0.0571 | 0 / 0.0223 / 0 | 0 / 0 / 0 |
| GGAAACCGGCACUAC | 0.288 | 0.295 / 0.482 / 0.267 | 0.0808 / 0.0445 / 0.160 | 0.0322 / 0.0454 / 0.205 |
| GGAAACCGGCAUGCC | 0.352 | 0.0655 / 0.0161 / 0.0381 | 0 / 0.0223 / 0 | 0.0161 / 0 / 0 |
| GGAAACCGGCAUUCC | 0.192 | 0.115 / 0.0643 / 0.0762 | 0 / 0 / 0.0200 | 0 / 0 / 0 |
| GGAAACCGGCCUGUC | 0.160 | 0.0491 / 0.0643 / 0.0952 | 0 / 0.0223 / 0.0200 | 0 / 0 / 0.0228 |
| GGAAACCGGCGCCCC | 0.240 | 0.0819 / 0.0643 / 0.0952 | 0 / 0 / 0 | 0 / 0 / 0 |
| GGAAACCGGGACAUC | 0.224 | 0.131 / 0.0161 / 0.0381 | 0 / 0 / 0.0200 | 0 / 0 / 0 |
| GGAAACCGGGCCAGC | 0.176 | 0.0983 / 0.112 / 0.0571 | 0 / 0 / 0 | 0 / 0 / 0 |
| GGAAACCGGGGUCGC | 0.336 | 0.0983 / 0.0643 / 0.0762 | 0.0162 / 0 / 0.0401 | 0 / 0 / 0 |
| GGAAACCGGGUUUGC | 0.160 | 0.0819 / 0.0803 / 0.114 | 0.0162 / 0 / 0.0200 | 0 / 0 / 0 |
| GGAAACCGGUAAGAC | 0.160 | 0.115 / 0.112 / 0.190 | 0.0323 / 0 / 0.0401 | 0.0322 / 0.0151 / 0 |
| GGAAACCGGUUACGC | 0.240 | 0.147 / 0.0643 / 0.152 | 0 / 0 / 0.0200 | 0 / 0 / 0 |
| GGAAACCGGUUUAUC | 0.160 | 0.0983 / 0.0964 / 0 | 0.0162 / 0 / 0.0200 | 0.0161 / 0 / 0 |
| GGAAACCGGUUUCAC | 0.240 | 0.0819 / 0.0643 / 0.171 | 0 / 0 / 0 | 0 / 0 / 0 |
| GGAAACCGUAACAGC | 0.256 | 0.180 / 0.112 / 0.0952 | 0.0162 / 0 / 0.0200 | 0.0161 / 0 / 0 |
| GGAAACCGUAAGCGC | 0.224 | 0.0983 / 0.112 / 0.0571 | 0 / 0 / 0.0200 | 0 / 0 / 0 |
| GGAAACCGUACUAAC | 0.160 | 0.246 / 0.402 / 0.228 | 0.129 / 0.0668 / 0.0801 | 0.0322 / 0 / 0 |
| GGAAACCGUACUGCC | 0.112 | 0.0328 / 0.129 / 0.0762 | 0.0162 / 0 / 0 | 0 / 0 / 0 |
| GGAAACCGUACUUUC | 0.208 | 0.344 / 0.289 / 0.305 | 0.113 / 0.0445 / 0.140 | 0.0161 / 0 / 0 |
| GGAAACCGUAGGAAC | 0.192 | 0.0491 / 0.145 / 0.0762 | 0 / 0.0223 / 0 | 0 / 0 / 0 |
| GGAAACCGUCAAGAC | 0.224 | 0.0164 / 0.0803 / 0.0381 | 0.0162 / 0 / 0.0200 | 0 / 0 / 0 |
| GGAAACCGUCGCUAC | 0.112 | 0.164 / 0.209 / 0.343 | 0.162 / 0.0668 / 0.120 | 0.0483 / 0 / 0 |
| GGAAACCGUGACGGC | 0.224 | 0.180 / 0.0161 / 0.0952 | 0.0162 / 0.0223 / 0.0200 | 0 / 0 / 0 |
| GGAAACCGUGCUUAC | 0.288 | 0.377 / 0.402 / 0.381 | 0.129 / 0.111 / 0.100 | 0.0322 / 0.0908 / 0.0456 |
| GGAAACCGUGUGUGC | 0.144 | 0.377 / 0.321 / 0.305 | 0.0323 / 0.134 / 0.240 | 0.0483 / 0 / 0 |
| GGAAACCGUUACACC | 0.272 | 0.0328 / 0.112 / 0.0571 | 0.0162 / 0 / 0 | 0 / 0 / 0 |
| GGAAACCGUUACAGC | 0.288 | 0.147 / 0.161 / 0.133 | 0 / 0.0223 / 0 | 0 / 0 / 0 |
| GGAAACCGUUCAACC | 0.304 | 0.0328 / 0.145 / 0.114 | 0 / 0 / 0.0401 | 0 / 0 / 0 |
| GGAAACCGUUCACUC | 0.304 | 0.311 / 0.257 / 0.381 | 0.0970 / 0.156 / 0.180 | 0.0322 / 0 / 0 |
| GGAAACCGUUCCAUC | 0.112 | 0.295 / 0.257 / 0.305 | 0.0323 / 0 / 0 | 0 / 0 / 0 |
| GGAAACCGUUUACUC | 0.272 | 0.115 / 0.0482 / 0.0762 | 0 / 0.0223 / 0.0200 | 0.0161 / 0 / 0 |
| GGAAACCGUUUUAGC | 0.272 | 0.0983 / 0.0803 / 0.133 | 0 / 0 / 0 | 0 / 0 / 0 |

The first 8 entries again:

sequence	pool	inoculated region	leaf margin	systemic leaves
GGAAACCGAAAGGGC	0.160	0.131 / 0.0482 / 0.0571	0 / 0 / 0	0.0161 / 0 / 0
GGAAACCGAAAUGCC	0.176	0.0328 / 0.0321 / 0.133	0 / 0 / 0	0 / 0 / 0
GGAAACCGAACAUUC	0.240	0.0491 / 0.0643 / 0.0571	0 / 0 / 0.0200	0 / 0 / 0
GGAAACCGAACGAGC	0.320	0.115 / 0.0803 / 0.0571	0 / 0 / 0	0 / 0 / 0
GGAAACCGAAGACAC	0.304	0.147 / 0.0482 / 0.0952	0 / 0 / 0	0 / 0 / 0
GGAAACCGAAUAGGC	0.176	0.115 / 0.129 / 0.0762	0 / 0.0223 / 0.0401	0 / 0 / 0
GGAAACCGACCCUAC	0.224	0.262 / 0.337 / 0.400	0.113 / 0.111 / 0.160	0.0161 / 0 / 0
GGAAACCGACCUAUC	0.240	0.131 / 0.0964 / 0.152	0 / 0 / 0	0 / 0 / 0

For reference, wild type rose from 33.9 per thousand in the pool to 202, 200, 159 (inoculated region), 724, 746, 710 (leaf margin) and 856, 883, 880 (systemic leaves).
The authors trace changes outside the varied positions to PCR and sequencing errors or to mutation in the plant; presence does not show that a variant is infectious alone.

Source: Wu et al. 2024 (doi:10.1371/journal.ppat.1012142), supplementary data.